Anti-infective test results gathered from many reports (values: NIAID ChemDB through PubChem).

All rows: whole-cell or culture tests; species: Candida albicans; measure: MIC90

Rows are shuffled and stem from different studies.

{"smiles": "c1ccc(C(c2cccc3ccccc23)n2ccnc2)cc1", "strain or isolate": "23 strains", "value": "32 µg/mL"}
{"smiles": "Clc1ccc(COc2ccc(C(c3cccc4ccccc34)n3ccnc3)cc2)cc1.O=[N+]([O-])O", "strain or isolate": "16 strains", "value": "≥256 µg/mL"}
{"smiles": "Cn1cc(-c2ccccc2)c(C(c2ccc(-c3ccccc3)cc2)n2ccnc2)c1", "strain or isolate": "33 strains", "value": ">256 µg/mL"}
{"smiles": "COc1ccc(CC(c2ccc(OC)cc2)n2cncn2)cc1", "strain or isolate": "28 strains", "value": "256 µg/mL"}
{"smiles": "Nc1[nH]c(=O)ncc1F", "strain or isolate": "50 isolates", "value": "0.63 µg/mL"}
{"smiles": "c1ccc2c(C(c3ccc(-n4cccc4)cc3)n3ccnc3)cccc2c1", "strain or isolate": "23 strains", "value": "8 µg/mL"}
{"smiles": "Clc1ccc(C(Cn2ccnc2)OCc2ccc3ccccc3c2)c(Cl)c1", "value": "16.2 µg/mL"}
{"smiles": "CCC(c1ccc(OC)cc1)C(c1ccc(OC)cc1)n1cncn1", "strain or isolate": "28 strains", "value": "256 µg/mL"}
{"smiles": "COc1ccc(COC(Cn2ccnc2)c2ccc(Cl)cc2Cl)cc1OC", "value": "59 µg/mL"}
{"smiles": "CCC(c1ccc(OC)cc1)C(c1ccc(OC)cc1)n1ccnc1", "strain or isolate": "28 strains", "value": "256 µg/mL"}
{"smiles": "c1ccc(-c2c[nH]cc2C(c2ccc3ccccc3c2)n2ccnc2)cc1", "strain or isolate": "33 strains", "value": "32 µg/mL"}
{"smiles": "Nc1[nH]c(=O)ncc1F", "strain or isolate": "50 isolates", "value": "0.64 µg/mL"}
{"smiles": "CCC(C)CC(C)CCCCCCCCC(=O)N[C@H]1C[C@@H](O)[C@H](NCCN)NC(=O)[C@@H]2[C@@H](O)CCN2C(=O)[C@H]([C@H](O)CCN)NC(=O)[C@H]([C@H](O)[C@@H](O)c2ccc(O)cc2)NC(=O)[C@@H]2C[C@@H](O)CN2C(=O)[C@H]([C@@H](C)O)NC1=O", "strain or isolate": "10 strains (fluconazole- itraconazole-susceptible)", "value": "1 µg/mL"}
{"smiles": "Cn1cc(-c2ccccc2)c(C(c2cccc3ccccc23)n2ccnc2)c1", "strain or isolate": "33 strains", "value": "32 µg/mL"}
{"smiles": "Clc1ccc(C(Cn2ccnc2)OCc2cc3ccccc3o2)c(Cl)c1", "value": "26.8 µg/mL"}
{"smiles": "c1ccc(-c2ccc(C(c3ccccc3)n3ccnc3)cc2)cc1", "strain or isolate": "30 strains", "value": "20 µg/mL"}
{"smiles": "Clc1ccc(COC(Cn2cncn2)c2ccc3c(c2)OCO3)c(Cl)c1", "value": ">100 µg/mL"}
{"smiles": "CCC(C)n1ncn(-c2ccc(N3CCN(c4ccc(OC[C@H]5CO[C@](Cn6cncn6)(c6ccc(Cl)cc6Cl)O5)cc4)CC3)cc2)c1=O", "strain or isolate": "50 isolates", "value": "0.39 µg/mL"}
{"smiles": "Clc1ccc(COC(Cn2cncn2)c2ccc(Cl)cc2Cl)c(Cl)c1", "value": "56 µg/mL"}
{"smiles": "CCC(C)CC(C)CCCCCCCCC(=O)N[C@H]1C[C@@H](O)[C@H](NCCN)NC(=O)[C@@H]2[C@@H](O)CCN2C(=O)[C@H]([C@H](O)CCN)NC(=O)[C@H]([C@H](O)[C@@H](O)c2ccc(O)cc2)NC(=O)[C@@H]2C[C@@H](O)CN2C(=O)[C@H]([C@@H](C)O)NC1=O", "strain or isolate": "50 isolates", "value": "0.4 µg/mL"}
{"smiles": "c1ccc(-c2ccc(C(c3c[nH]cc3-c3ccccc3)n3ccnc3)cc2)cc1", "strain or isolate": "33 strains", "value": "128 µg/mL"}
{"smiles": "Cc1ccc(C(c2ccc3ccccc3c2)n2ccnc2)cc1", "strain or isolate": "23 strains", "value": "8 µg/mL"}
{"smiles": "C=C1CO[C@H]2[C@@H](C)OC(OC[C@@]34C[C@H]5[C@H](C)CC[C@@H]5[C@@]5(C=O)C[C@@H]3C=C(C(C)C)[C@@]45C(=O)O)C[C@@H]12", "strain or isolate": "66 strains (fluconazole-susceptible)", "value": "0.06 µg/mL"}
{"smiles": "CC[C@@H]([C@H](C)O)n1ncn(-c2ccc(N3CCN(c4ccc(OC[C@@H]5CO[C@@](Cn6cncn6)(c6ccc(F)cc6F)C5)cc4)CC3)cc2)c1=O", "strain or isolate": "660 isolates", "value": "0.06 µg/mL"}
{"smiles": "O=[N+]([O-])O.c1ccc(-c2ccc(C(c3nccc4ccccc34)n3ccnc3)cc2)cc1", "strain or isolate": "44 strains", "value": "256 µg/mL"}
{"smiles": "CCC(C)n1ncn(-c2ccc(N3CCN(c4ccc(OC[C@H]5CO[C@](Cn6cncn6)(c6ccc(Cl)cc6Cl)O5)cc4)CC3)cc2)c1=O", "strain or isolate": "Fluconazole-resistant", "value": "2 µg/mL"}
{"smiles": "OC(Cn1cncn1)(Cn1cncn1)c1ccc(F)cc1F", "strain or isolate": "Isolate HR-Micro", "setting": "48 h", "value": "≥100 µg/mL"}
{"smiles": "CCC(C)n1ncn(-c2ccc(N3CCN(c4ccc(OC[C@H]5CO[C@](Cn6cncn6)(c6ccc(Cl)cc6Cl)O5)cc4)CC3)cc2)c1=O", "strain or isolate": "ATCC 90028", "value": "0.091 µg/mL"}
{"smiles": "Fc1ccc(COc2ccc(C(c3ccc(-c4ccccc4)cc3)n3ccnc3)cc2)c(F)c1.O=[N+]([O-])O", "strain or isolate": "17 strains", "value": "≥256 µg/mL"}
{"smiles": "O=C(OCC1COC(Cn2ccnc2)(c2ccc(-c3ccccc3)cc2)O1)c1ccccc1", "strain or isolate": "44 strains", "value": "32 µg/mL"}
{"smiles": "Clc1ccc(COC(Cn2cncn2)c2cccc3ccccc23)c(Cl)c1", "value": ">100 µg/mL"}
{"smiles": "CC(C)C1C[C@H]2C[C@]3(C=O)[C@@H]4CC[C@@H](C)[C@H]4C[C@@]2(CO[C@H]2CN(C4CC4)C[C@@H](C)O2)[C@]13C(=O)O", "strain or isolate": "16 isolates", "value": "0.06 µg/mL"}
{"smiles": "OC[C@@H]1CO[C@](Cn2ccnc2)(c2ccc(-c3ccccc3)cc2)O1", "strain or isolate": "44 strains", "value": ">256 µg/mL"}
{"smiles": "CC(=O)OCC1C=C(c2ccc(Br)cc2)C(=O)O1", "strain or isolate": "16 isolates fluconazole-susceptible", "value": "2 µg/mL"}
{"smiles": "Nc1[nH]c(=O)ncc1F", "strain or isolate": "19 strains", "value": "0.5 µg/mL"}
{"smiles": "CCC(C)CC(C)CCCCCCCCC(=O)N[C@H]1C[C@@H](O)[C@@H](OCCN)NC(=O)[C@@H]2[C@@H](O)CCN2C(=O)[C@H]([C@@H](O)CCN)NC(=O)[C@H]([C@H](O)[C@@H](O)c2ccc(O)cc2)NC(=O)[C@@H]2C[C@@H](O)CN2C(=O)[C@H]([C@H](C)O)NC1=O", "strain or isolate": "50 isolates", "value": "0.39 µg/mL"}
{"smiles": "C[C@H]1[C@H](O)[C@@H](C)/C=C/C=C/C=C/C=C/C=C/C=C/C=C/[C@H](O[C@@H]2O[C@H](C)[C@@H](O)[C@H](N)[C@@H]2O)C[C@@H]2O[C@](O)(C[C@@H](O)C[C@@H](O)CC[C@H](O)[C@@H](O)C[C@@H](O)CC(=O)O[C@H]1C)C[C@H](O)[C@H]2C(=O)O", "strain or isolate": "32 strains", "value": "2 µg/mL"}
{"smiles": "CCCCCOc1ccc(-c2cc(-c3ccc(C(=O)N[C@H]4C[C@@H](O)[C@@H](O)NC(=O)[C@@H]5[C@@H](O)[C@@H](C)CN5C(=O)[C@H]([C@H](O)CC(N)=O)NC(=O)[C@H]([C@H](O)[C@@H](O)c5ccc(O)c(OS(=O)(=O)O)c5)NC(=O)[C@@H]5C[C@@H](O)CN5C(=O)[C@H]([C@@H](C)O)NC4=O)cc3)no2)cc1", "strain or isolate": "Fluconazole-resistant 4 isolates pooled", "value": "0.0313 µg/mL"}
{"smiles": "CCC(C)n1ncn(-c2ccc(N3CCN(c4ccc(OC[C@H]5CO[C@](Cn6cncn6)(c6ccc(Cl)cc6Cl)O5)cc4)CC3)cc2)c1=O", "strain or isolate": "TIMM3317 (azole-resistant)", "value": ">51 µg/mL"}
{"smiles": "CC[C@@H]([C@H](C)O)n1ncn(-c2ccc(N3CCN(c4ccc(OC[C@@H]5CO[C@@](Cn6cncn6)(c6ccc(F)cc6F)C5)cc4)CC3)cc2)c1=O", "strain or isolate": "166 isolates", "value": "0.25 µg/mL"}
{"smiles": "CS(=O)(=O)OCC1COC(Cn2ccnc2)(c2ccc(-c3ccccc3)cc2)O1", "strain or isolate": "44 strains", "value": "128 µg/mL"}
{"smiles": "Fc1ccc(COc2ccc(C(c3ccc4ccccc4c3)n3ccnc3)cc2)c(F)c1.O=[N+]([O-])O", "strain or isolate": "17 strains", "value": "≥256 µg/mL"}
{"smiles": "C[C@H]1[C@H](O)[C@@H](C)/C=C/C=C/C=C/C=C/C=C/C=C/C=C/[C@H](O[C@@H]2O[C@H](C)[C@@H](O)[C@H](N)[C@@H]2O)C[C@@H]2O[C@](O)(C[C@@H](O)C[C@@H](O)CC[C@H](O)[C@@H](O)C[C@@H](O)CC(=O)O[C@H]1C)C[C@H](O)[C@H]2C(=O)O", "strain or isolate": "13 strains (fluconazole-resistant)", "value": "1 µg/mL"}
{"smiles": "c1ccc(-c2c[nH]cc2C(c2cccc3ccccc23)n2ccnc2)cc1", "strain or isolate": "33 strains", "value": "8 µg/mL"}
{"smiles": "Clc1ccc(COC(Cn2ccnc2)c2ccc3ccccc3c2)c(Cl)c1", "value": "86 µg/mL"}
{"smiles": "C=C(CF)CN1C[C@H](OC[C@@]23C[C@@H]4[C@H](C)CC[C@H]4[C@@]4(C=O)C[C@@H]2CC(C(C)C)[C@@]34C(=O)O)O[C@H](C)C1", "strain or isolate": "16 isolates/fluconazole resistant", "value": "0.015 µg/mL"}
{"smiles": "Fc1ccc(C(c2nccc3ccccc23)n2ccnc2)cc1.O=[N+]([O-])O", "strain or isolate": "44 strains", "value": "256 µg/mL"}
{"smiles": "COc1cc(O)c2c(c1)C(=O)c1c(cc3c(c1O)-c1c(cc(C)c(C(=O)NC(CO)C(=O)O)c1O)[C@H](OC1OC(C)C(O)C(OC4OCC(O)C(O)C4O)C1O)C3O)C2=O", "strain or isolate": "97 isolates", "value": "4 µg/mL"}
{"smiles": "C=C=CCN1C[C@H](OC[C@@]23C[C@@H]4[C@H](C)CC[C@H]4[C@@]4(C=O)C[C@@H]2CC(C(C)C)[C@@]34C(=O)O)O[C@H](C)C1", "strain or isolate": "16 isolates/fluconazole resistant", "value": "0.06 µg/mL"}
{"smiles": "COc1ccc(CC(c2ccc(OC)cc2)n2ccnc2)cc1", "strain or isolate": "28 strains", "value": "32 µg/mL"}
{"smiles": "C[C@H]1[C@H](O)[C@@H](C)/C=C/C=C/C=C/C=C/C=C/C=C/C=C/[C@H](O[C@@H]2O[C@H](C)[C@@H](O)[C@H](N)[C@@H]2O)C[C@@H]2O[C@](O)(C[C@@H](O)C[C@@H](O)CC[C@H](O)[C@@H](O)C[C@@H](O)CC(=O)O[C@H]1C)C[C@H](O)[C@H]2C(=O)O", "strain or isolate": "40 strains", "value": "0.25 µg/mL"}
{"smiles": "CC[C@@H]([C@H](C)O)n1ncn(-c2ccc(N3CCN(c4ccc(OC[C@@H]5CO[C@@](Cn6cncn6)(c6ccc(F)cc6F)C5)cc4)CC3)cc2)c1=O", "strain or isolate": "13 isolates fluconazole-resistant", "value": ">16 µg/mL"}
{"smiles": "CON=C1C2CC(C)CC1C(c1cccc(F)c1)NC2c1cccc(F)c1", "value": "8 µg/mL"}
{"smiles": "CCC(C)n1ncn(-c2ccc(N3CCN(c4ccc(OC[C@H]5CO[C@](Cn6cncn6)(c6ccc(Cl)cc6Cl)O5)cc4)CC3)cc2)c1=O", "strain or isolate": "166 isolates", "value": "0.25 µg/mL"}
{"smiles": "Clc1cccc(Cl)c1COc1ccc(C(c2nccc3ccccc23)n2ccnc2)cc1", "strain or isolate": "16 strains", "value": "≥256 µg/mL"}
{"smiles": "CC(=O)OCC1C=C(c2ccc(Cl)c(Cl)c2)C(=O)O1", "strain or isolate": "9 isolates fluconazole-resistant", "value": "2 µg/mL"}
{"smiles": "CCC(C)CC(C)CCCCCCCCC(=O)N[C@H]1C[C@@H](O)[C@H](NCCN)NC(=O)[C@@H]2[C@@H](O)CCN2C(=O)[C@H]([C@H](O)CCN)NC(=O)[C@H]([C@H](O)[C@@H](O)c2ccc(O)cc2)NC(=O)[C@@H]2C[C@@H](O)CN2C(=O)[C@H]([C@@H](C)O)NC1=O", "strain or isolate": "50 isolates", "value": "0.4 µg/mL"}
{"smiles": "c1ccc(-c2ccc(C(c3cccc4ccccc34)n3ccnc3)cc2)cc1", "strain or isolate": "23 strains", "value": "256 µg/mL"}
{"smiles": "COc1ccc(C(Cc2ccc(Cl)cc2)n2cncn2)cc1", "strain or isolate": "28 strains", "value": "128 µg/mL"}

A number after MIC or MFC names an inhibition level or a share of isolates.